Data published in PMC3656097 (2013).

B1: FGFR3b Loop 3 (domain or fragment)
chain: PILQAGLPANQTAVLGSDVEFHCKVYSDAQPHIQWLKHVEVNGSKVGPDGTPYVTVLKSWISESVEADVRLRLANVSERDGGEYLCRATNFIGVAEKAFWLS
B2: FGFR3c Loop 1,2,3 (short version) (domain or fragment)
chain: SLGTEQRVVGRAAEVPGPEPGQQEQLVFGSGDAVELSCPPPGGGPMGPTVWVKDGTGLVPSERVLVGPQRLQVLNASHEDSGAYSCRQRLTQRVLCHFSVRVTDAPSSGDDEDGEDEAEDTGVDTGAPYWTRPERMDKKLLAVPAANTVRFRCPAAGNPTPSISWLKNGREFRGEHRIGGIKLRHQQWSLVMESVVPSDRGNYTCVVENKFGSIRQTYTLDVLERSPHRPILQAGLPANQTAVLGSDVEFHCKVYSDAQPHIQWLKHVEVNGSKVGPDGTPYVTVLKTAGANTTDKELEVLSLHNVTFEDAGEYTCLAGNSIGFSHHSAWLV
B3: FGFR3c Loop 2,3 (domain or fragment)
chain: PYWTRPERMDKKLLAVPAANTVRFRCPAAGNPTPSISWLKNGREFRGEHRIGGIKLRHQQWSLVMESVVPSDRGNYTCVVENKFGSIRQTYTLDVLERSPHRPILQAGLPANQTAVLGSDVEFHCKVYSDAQPHIQWLKHVEVNGSKVGPDGTPYVTVLKTAGANTTDKELEVLSLHNVTFEDAGEYTCLAGNSIGFSHHSAWLV
B4: FGFR3c Loop 3 (domain or fragment)
chain: PILQAGLPANQTAVLGSDVEFHCKVYSDAQPHIQWLKHVEVNGSKVGPDGTPYVTVLKTAGANTTDKELEVLSLHNVTFEDAGEYTCLAGNSIGFSHHSAWLV
B5: FGFR3b Loop 1,2,3 (short version) (domain or fragment)
chain: SLGTEQRVVGRAAEVPGPEPGQQEQLVFGSGDAVELSCPPPGGGPMGPTVWVKDGTGLVPSERVLVGPQRLQVLNASHEDSGAYSCRQRLTQRVLCHFSVRVTDAPSSGDDEDGEDEAEDTGVDTGAPYWTRPERMDKKLLAVPAANTVRFRCPAAGNPTPSISWLKNGREFRGEHRIGGIKLRHQQWSLVMESVVPSDRGNYTCVVENKFGSIRQTYTLDVLERSPHRPILQAGLPANQTAVLGSDVEFHCKVYSDAQPHIQWLKHVEVNGSKVGPDGTPYVTVLKSWISESVEADVRLRLANVSERDGGEYLCRATNFIGVAEKAFWLSVHG
B6: FGFR3c Loop 1,2,3 (long version) (domain or fragment)
chain: ESLGTEQRVVGRAAEVPGPEPGQQEQLVFGSGDAVELSCPPPGGGPMGPTVWVKDGTGLVPSERVLVGPQRLQVLNASHEDSGAYSCRQRLTQRVLCHFSVRVTDAPSSGDDEDGEDEAEDTGVDTGAPYWTRPERMDKKLLAVPAANTVRFRCPAAGNPTPSISWLKNGREFRGEHRIGGIKLRHQQWSLVMESVVPSDRGNYTCVVENKFGSIRQTYTLDVLERSPHRPILQAGLPANQTAVLGSDVEFHCKVYSDAQPHIQWLKHVEVNGSKVGPDGTPYVTVLKTAGANTTDKELEVLSLHNVTFEDAGEYTCLAGNSIGFSHHSAWLVVLPAEEELVEADEAGSVYAG
B7: FGFR3b Loop 1,2,3 (long version) (domain or fragment)
chain: ESLGTEQRVVGRAAEVPGPEPGQQEQLVFGSGDAVELSCPPPGGGPMGPTVWVKDGTGLVPSERVLVGPQRLQVLNASHEDSGAYSCRQRLTQRVLCHFSVRVTDAPSSGDDEDGEDEAEDTGVDTGAPYWTRPERMDKKLLAVPAANTVRFRCPAAGNPTPSISWLKNGREFRGEHRIGGIKLRHQQWSLVMESVVPSDRGNYTCVVENKFGSIRQTYTLDVLERSPHRPILQAGLPANQTAVLGSDVEFHCKVYSDAQPHIQWLKHVEVNGSKVGPDGTPYVTVLKSWISESVEADVRLRLANVSERDGGEYLCRATNFIGVAEKAFWLSVHGPRAAEEELVEADEAGSVYAG

Target: T1, recombinant binding domain of BoNT/A, His-rHC/A (Clostridium botulinum)

With B1 the koff was 0.000406 s⁻¹.

Target: T1, recombinant binding domain of BoNT/A, …
Remark: another data set of the same source

Going from B2 to B3, the Kd rises from 25.4 nM to 78 nM (3.1-fold). The first binds more tightly here.

Going from B4 to B5, the Kd falls from 333 nM to 11.7 nM (28-fold).

Going from B6 to B1, the Kd rises from 28.7 nM to 262 nM (9.1-fold).

B7 was tested, and the Kd was 11.9 nM.
